Anti-infective test results gathered from many reports (values: NIAID ChemDB through PubChem).

Shared fields: host cell toxicity; measure: CC50

Blank or dashed fields: not listed here. Conditions beyond the fields shown may differ between rows. CCn is the concentration with n% toxicity to the cells.

{"smiles": "OC[C@H]1NC[C@@H](O)[C@@H]1O", "cell line": "Karpas 45 cells", "value": ">170 µg/mL"}
{"smiles": "O=c1[nH]c(=O)n([C@H]2C[C@H](O)[C@@H](CO)O2)c[c]1[Hg+]", "cell line": "HELA TK-", "method": "trypan blue", "value": "5.7 µg/mL"}
{"smiles": "OC[C@H]1NC[C@H](O)[C@@H]1O", "cell line": "Karpas 45 cells", "value": ">130 µg/mL"}
{"smiles": "COC(=O)c1cc(O)c(O)c(O)c1", "cell line": "CEM", "method": "cell count", "value": "83 µg/mL"}
{"smiles": "Nc1nc(=O)n([C@@H]2CS[C@H](CO)O2)cc1F", "cell line": "BFU-E", "value": "38 µM"}
{"smiles": "CN1C[C@@H](O)[C@H](O)[C@H]1CO", "cell line": "Karpas 45 cells", "value": ">300 µg/mL"}
{"smiles": "[C-]#[N+][C@@]1(C)CC[C@H]2[C@H]3[C@H]4C(=CC[C@@H]31)CC(C)(C)C[C@@H]4C[C@@H]2C", "cell line": "KB", "value": ">20 µg/mL"}
{"smiles": "CCc1nc2sccn2c1C(=O)c1ccco1", "cell line": "U1", "value": ">100 µM"}
{"smiles": "O=c1cnn([C@@H]2O[C@H](CO)[C@@H](O)[C@H]2O)c(=O)[nH]1", "cell line": "MA-104", "value": "25 µg/mL"}
{"smiles": "C[C@](Cl)([C@@H](Br)/C=C/[C@](C)(Cl)CBr)[C@@H](Br)CCl", "cell line": "KB", "value": "12.4 µg/mL"}
{"smiles": "Cc1cn([C@H]2C[C@H](N=[N+]=[N-])[C@@H](CO)O2)c(=O)[nH]c1=O", "cell line": "U-937/HIV-1(IIIB)", "value": ">100 µg/mL"}
{"smiles": "COC[C@@H](c1ccc(C(F)(F)F)cc1)N1CCN(C2(C)CCN(C(=O)c3c(C)ncnc3C)CC2)C[C@@H]1C", "cell line": "PM1", "method": "MTT / absorbance", "value": ">5 µM"}
{"smiles": "Nc1nc2c(ncn2COC(CO)CO)c(=O)[nH]1", "cell line": "CBMC", "method": "MTT", "value": "160 µM"}
{"smiles": "O=c1[nH]cnc2c1ncn2[C@H]1CC[C@@H](CO)O1", "cell line": "HeLaT4", "value": ">2500 µM"}
{"smiles": "Cc1ccc(-c2ccc3c(c2)C=C(C(=O)Nc2ccc(C[N+](C)(C)C4CCOCC4)cc2)CCC3)cc1", "cell line": "THP-1", "value": "~50 µM"}
{"smiles": "NC(CS)C(=O)O.O=c1[nH]c(=O)n([C@H]2C[C@H](O)[C@@H](CO)O2)c[c]1[Hg+]", "cell line": "HELA TK-", "method": "trypan blue", "value": ">114 µg/mL"}
{"smiles": "CC(=O)O/N=C1/C[C@H](n2cc(C)c(=O)[nH]c2=O)O[C@@H]1CO", "cell line": "P3HR-1", "value": ">20 µg/mL"}
{"smiles": "C/C(=N\\OCc1ccc(F)cc1)c1c(C)cc(=O)n(O)c1O", "conditions": "7 d", "cell line": "HepDES19", "method": "MTS", "value": "31.2 µM"}
{"smiles": "O=C(O)/C=C/c1ccc(O)c(O)c1", "cell line": "CEM", "method": "cell count", "value": ">100 µg/mL"}
{"smiles": "OC[C@H]1[C@H](O)[C@H](O)CN1Cc1ccccc1", "cell line": "Karpas 45 cells", "value": ">100 µg/mL"}
{"smiles": "C=C(C)[C@@H]1CC[C@]2(CO)CC[C@]3(C)[C@H](CC[C@@H]4[C@@]5(C)CC[C@H](OC(C)=O)C(C)(C)[C@@H]5CC[C@]43C)[C@@H]12", "cell line": "KB", "value": ">20 µg/mL"}
{"smiles": "CN1C[C@@H](O)[C@@H](O)[C@H](O)[C@H]1CO", "cell line": "Karpas 45 cells", "value": ">300 µg/mL"}
{"smiles": "O=c1[nH]c(=O)n([C@H]2C[C@H](O)[C@@H](CO)O2)c[c]1[Hg+].OCC[S-]", "cell line": "HELA TK-", "method": "trypan blue", "value": "19.4 µg/mL"}
{"smiles": "Nc1nc(N)c2ncn(CCOCP(=O)(O)O)c2n1", "cell line": "CBMC", "method": "MTT", "value": "32 µM"}
{"smiles": "O=c1[nH]c(=O)n([C@H]2C[C@H](O)[C@@H](CO)O2)cc1/C=C/Br", "cell line": "E6SM", "value": ">400 µg/mL"}
{"smiles": "O=C1N[C@@H](CO)[C@H](O)[C@@H](O)[C@H]1O", "cell line": "Karpas 45 cells", "value": ">500 µg/mL"}
{"smiles": "O=c1[nH]c(=O)n([C@H]2C[C@H](O)[C@@H](CO)O2)cc1/C=C/Br", "cell line": "CBMC", "method": "MTT", "value": "196 µM"}
{"smiles": "Cc1cn([C@H]2CC[C@@H](CO)O2)c(=O)n(NO)c1=O", "cell line": "P3HR-1", "value": ">100 µg/mL"}
{"smiles": "O=C(O)/C=C/c1ccc(O)c(O)c1.O=C(O)c1cc(O)c(O)c(O)c1", "cell line": "CEM", "method": "cell count", "value": ">100 µg/mL"}
{"smiles": "O=P(O)(O)COCCn1cnc2c(NC3CC3)ncnc21", "cell line": "P3HR-1", "value": ">100 µg/mL"}
{"smiles": "CO[C@H]1C[C@H](n2cc(/C=C/Br)c(=O)[nH]c2=O)O[C@@H]1COP1(=O)OCc2cccc(C)c2O1", "cell line": "P3HR-1", "value": ">100 µg/mL"}
{"smiles": "Cc1cc(O)c2c(c1)C(=O)C(c1c(C)cc3c(c1O)C(=O)C=CC3=O)=CC2=O", "cell line": "J774A.1", "value": "26.46 µg/mL"}
{"smiles": "CCc1nc2ccccn2c1C(=O)c1cccs1", "cell line": "U1", "value": ">100 µM"}
{"smiles": "COC(=O)CCCCCN1C[C@@H](O)[C@H](O)[C@H](O)[C@@H]1C", "cell line": "Karpas 45 cells", "value": ">250 µg/mL"}
{"smiles": "Cc1cn([C@H]2C[C@H](N=[N+]=[N-])[C@@H](COC(=O)c3cccnc3)O2)c(=O)[nH]c1=O", "cell line": "CEM", "method": "cell count", "value": ">100 µg/mL"}
{"smiles": "CC(=O)N(O)CCCCCNC(=O)CCC(=O)N(O)CCCCCNC(=O)CCC(=O)N(O)CCCCCN", "cell line": "U373-MAGI", "method": "ATP", "value": ">400 µM"}
{"smiles": "O=c1[nH]c(=O)n([C@H]2C[C@H](O)[C@@H](CO)O2)cc1C(F)(F)F", "cell line": "CBMC", "method": "MTT", "value": "71 µM"}
{"smiles": "CC(=O)OC[C@H]1O[C@@H](n2ncc(=O)[nH]c2=O)[C@H](OC(C)=O)[C@@H]1OC(C)=O", "cell line": "MA-104", "value": "14 µg/mL"}
{"smiles": "Cc1cn([C@H]2C[C@H](N=[N+]=[N-])[C@@H](CO)O2)c(=O)[nH]c1=O", "cell line": "CEM174", "value": ">100 µM"}
{"smiles": "NC(=O)c1ncn([C@@H]2O[C@H](CO)[C@@H](O)[C@H]2O)n1", "cell line": "P3HR-1", "value": "32 µg/mL"}
{"smiles": "Nc1ncnc2c1ncn2CCOCP(=O)(O)O", "cell line": "CBMC", "method": "MTT", "value": "44 µM"}
{"smiles": "Nc1nc2c(ncn2[C@@H]2O[C@H](CO)[C@H]2CO)c(=O)[nH]1", "cell line": "P3HR-1", "value": "4.9 µg/mL"}
{"smiles": "NC(=O)c1[nH]nc([C@@H]2O[C@H](CO)[C@@H](O)[C@H]2O)c1O", "cell line": "MA-104", "value": "90 µg/mL"}
{"smiles": "Nc1nc(N)c2ncn(C[C@@H](CO)OCP(=O)(O)O)c2n1", "cell line": "CBMC", "method": "MTT", "value": "30 µM"}
{"smiles": "[C-]#[N+][C@@]1(C)CC[C@H]2[C@H]3[C@@H](C(=C)CC[C@@H]31)[C@H](CC(C)(C)N=C=S)C[C@@H]2C", "cell line": "KB", "value": ">20 µg/mL"}

6 of the rows above, restated:

smiles	conditions	cell line	method	value
CC(=O)N(O)CCCCCNC(=O)CCC(=O)N(O)CCCCCNC(=O)CCC(=O)N(O)CCCCCN	-	U373-MAGI	ATP	>400 µM
Nc1ncnc2c1ncn2CCOCP(=O)(O)O	-	CBMC	MTT	44 µM
NC(=O)c1[nH]nc([C@@H]2O[C@H](CO)[C@@H](O)[C@H]2O)c1O	-	MA-104	-	90 µg/mL
CCc1nc2sccn2c1C(=O)c1ccco1	-	U1	-	>100 µM
Cc1cc(O)c2c(c1)C(=O)C(c1c(C)cc3c(c1O)C(=O)C=CC3=O)=CC2=O	-	J774A.1	-	26.46 µg/mL
O=c1cnn([C@@H]2O[C@H](CO)[C@@H](O)[C@H]2O)c(=O)[nH]1	-	MA-104	-	25 µg/mL